Results: patent US6362166B1, “Antipicornaviral compounds and methods for their use and preparation” (Agouron Pharmaceuticals, Inc., priority 1996, dated 2002)

Key:
HRV-14 = assay: Antirhinoviral HI-HeLa Cell Culture Assay (Cell Protection Assay, XTT dye reduction); type: cell-based, human rhinovirus (HRV) serotype-14; conditions: therapeutic index = CC50 divided by EC50; HRV-14, HI-HeLa
Summary of the method: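 HI-HeLa cells infected with HRV-14 at m.o.i. 0.13 or mock-infected, then incubated with compounds for two days. Cell protection read by XTT/PMS formazan at 450/650 nm; therapeutic index = CC50/EC50.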

CVB-3 = assay: Anticoxsackieviral HI-HeLa Cell Culture Assay (XTT dye reduction); type: cell-based, Coxsackie strain B-3 (CVB-3); conditions: therapeutic index = CC50 divided by EC50; CVB-3, HI-HeLa
Protocol: Specifically, HI-HeLa cells were infected wtih […] at a multiplicity of infection (m.o.i.) of 0.08 or mock-infected with medium only. Infected or mock-infected cells were resuspended at 8×10^5 cells per mL and incubated with appropriate concentrations of compound. One day later, XTT/PMS were added to test plates and the amount of formazan produced was quantified spectrophotometrically at 450/650 nm. […] The therapeutic index (TI) was calculated by dividing the CC50 by the EC50.
The Coxsackie strain B-3 (CVB-3) was purchased from American Type Culture Collection (ATCC). Virus stocks were propgated and antiviral assays were performed in Hi-HeLa cells (ATCC). Cells were grown in Minimal Essential Medium with 10% fetal bovine serum.

SMILES	TI (HRV-14)	TI (CVB-3)
CCOC(=O)/C=C/[C@H](CCC(N)=O)NC(=O)[C@H](Cc1ccc(F)cc1)NC(=O)c1cc2c(OC)cccc2[nH]1 [Compound 27]	46	>5
CON(C)C(=O)/C=C/[C@H](CCC(N)=O)NC(=O)[C@H](Cc1ccccc1)NC(=O)[C@H](CC(C)C)NC(=O)OCc1ccccc1 [Compound 37]	>25	>5.6
